# Data from PMC5802825, “Legionella DotM structure reveals a role in effector recruiting to the Type 4B secretion system” (2018).
# By UniProt entry, the sequences of proteins in these tests, tags left out. Residues count along the entry.
# UniProt Q5ZYC7, 153-380 limits assumed: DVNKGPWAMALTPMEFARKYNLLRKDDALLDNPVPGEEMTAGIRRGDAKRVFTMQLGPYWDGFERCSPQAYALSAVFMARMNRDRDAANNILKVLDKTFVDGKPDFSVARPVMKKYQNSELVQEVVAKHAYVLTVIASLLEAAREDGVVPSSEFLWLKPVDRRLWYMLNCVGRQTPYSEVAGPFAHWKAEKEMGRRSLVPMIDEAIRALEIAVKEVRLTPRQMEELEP
# Target: DotM153 WT (cytoplasmic domain of DotM, residues 153–380) (Legionella pneumophila subsp. pneumophila, UniProt Q5ZYC7)
row,Compound,Kd
1,CSCC[C@H](NC(=O)[C@@H](NC(=O)[C@H](Cc1ccccc1)NC(=O)[C@H](CCCNC(=N)N)NC(=O)[C@H](CO)NC(=O)[C@H](CO)NC(=O)[C@H](CCC(=O)O)NC(=O)[C@H](CCC(=O)O)NC(=O)[C@H](CC(N)=O)NC(=O)[C@H](CCC(=O)O)NC(=O)[C@H](CCC(=O)O)NC(=O)[C@H](CCC(=O)O)NC(=O)[C@H](CCCCN)NC(=O)[C@H](CCC(=O)O)NC(=O)[C@H](CCC(=O)O)NC(=O)[C@H](CC(N)=O)NC(=O)[C@H](CCC(=O)O)NC(=O)[C@H](CO)NC(=O)[C@H](CO)NC(=O)[C@H](CCC(=O)O)NC(=O)[C@H](CO)NC(=O)[C@H](CO)NC(=O)[C@H](CO)NC(=O)[C@H](Cc1ccccc1)NC(=O)[C@H](CCC(=O)O)NC(=O)[C@H](C)NC(=O)CNC(=O)CN)[C@@H](C)O)C(=O)O,190 nM
2,CC(C)[C@H](NC(=O)[C@H](CO)NC(=O)[C@H](C)NC(=O)[C@H](CO)NC(=O)[C@H](CC(N)=O)NC(=O)[C@H](CCCNC(=N)N)NC(=O)[C@H](CO)NC(=O)[C@H](CCC(=O)O)NC(=O)[C@H](CCC(=O)O)NC(=O)[C@H](CC(=O)O)NC(=O)[C@H](CCC(=O)O)NC(=O)[C@H](CC(N)=O)NC(=O)[C@H](CCC(=O)O)NC(=O)[C@H](CCC(=O)O)NC(=O)[C@H](CCC(=O)O)NC(=O)[C@H](CO)NC(=O)[C@H](CCC(=O)O)NC(=O)[C@H](C)NC(=O)[C@H](CCCCN)NC(=O)[C@H](CC(=O)O)NC(=O)[C@H](CCC(=O)O)NC(=O)[C@H](CO)NC(=O)[C@@H](NC(=O)[C@@H](NC(=O)[C@H](CCCCN)NC(=O)[C@@H]1CCCN1C(=O)CNC(=O)CN)C(C)C)C(C)C)C(=O)O,700 nM
3,CC(C)C[C@H](NC(=O)[C@H](CO)NC(=O)[C@H](CO)NC(=O)[C@H](CC(C)C)NC(=O)[C@H](CC(C)C)NC(=O)[C@H](CO)NC(=O)[C@H](CO)NC(=O)[C@H](CCC(=O)O)NC(=O)[C@H](CCC(=O)O)NC(=O)[C@H](CCC(=O)O)NC(=O)[C@H](CCC(=O)O)NC(=O)[C@H](CCC(=O)O)NC(=O)[C@H](CCC(=O)O)NC(=O)[C@H](CCC(=O)O)NC(=O)[C@H](CCC(=O)O)NC(=O)[C@H](CC(C)C)NC(=O)[C@H](CC(C)C)NC(=O)[C@@H](NC(=O)[C@H](CC(=O)O)NC(=O)[C@H](CC(=O)O)NC(=O)[C@H](CO)NC(=O)[C@H](CO)NC(=O)[C@H](Cc1ccccc1)NC(=O)CNC(=O)CN)C(C)C)C(=O)N[C@@H](CCCCN)C(=O)N[C@@H](CCC(=O)O)C(=O)O,350 nM
